# Experimental data reported in the supplement of paper PMC8728848.
# The sample as a whole holds a higher share of the strongest signals than the screen did.
# Key:
# Experiment in all cases: glycan array binding signal (z-score within array); higher = stronger binding
# Conditions in all cases: glycan notation: IUPAC condensed, linker removed
# [1] = target: Fuc(a1-2)Gal(b1-3)GlcNAc(b1-2)Man(a1-3)[Fuc(a1-2)Gal(b1-3)GlcNAc(b1-2)Man(a1-6)]Man(b1-4)GlcNAc(b1-4)[Fuc(a1-6)]GlcNAc
# [2] = target: Fuc(a1-2)Gal(b1-4)[Fuc(a1-3)]GlcNAc(b1-3)[Neu5Ac(a2-6)Gal(b1-4)GlcNAc(b1-6)]Gal(b1-4)Glc
# Fuc(a1-2)[Gal(a1-3)]Gal = target: Fuc(a1-2)[Gal(a1-3)]Gal
# [3] = target: Fuc(a1-2)[Gal(a1-3)]Gal(b1-4)GlcNAc(b1-3)GalNAc
# [4] = target: Fuc(a1-2)[GalNAc(a1-4)]Gal(b1-4)GlcNAc
# Gal(a1-2)Gal = target: Gal(a1-2)Gal
# [5] = target: Gal(a1-3)Gal(b1-3)GlcNAc(b1-6)GalNAc
# [6] = target: Gal(a1-4)Gal(b1-3)GlcNAc(b1-2)Man(a1-3)[Gal(a1-4)Gal(b1-3)GlcNAc(b1-2)Man(a1-6)]Man(b1-4)GlcNAc(b1-4)GlcNAc
# [7] = target: Gal(a1-4)Gal(b1-4)GlcNAc(b1-3)Gal(b1-4)Glc
# [8] = target: Gal(b1-3)GalNAc(b1-4)Gal(b1-4)Glc
# [9] = target: Gal(b1-3)[Fuc(a1-4)]GlcNAc(b1-3)Gal(b1-3)[Fuc(a1-4)]GlcNAc
# [10] = target: Gal(b1-3)[Fuc(a1-4)]GlcNAc(b1-3)Gal(b1-4)[Fuc(a1-3)]GlcNAc
# [11] = target: Gal(b1-4)GalNAc(b1-3)[Fuc(a1-2)]Gal(b1-4)GlcNAc
# [12] = target: Gal(b1-4)GlcNAc(b1-2)Man(a1-3)[Gal(b1-4)GlcNAc(b1-2)Man(a1-6)]Man(b1-4)GlcNAc(b1-4)[Fuc(a1-6)]GlcNAc
# [13] = target: Gal(b1-4)GlcNAc(b1-2)Man(a1-6)[Man(a1-3)]Man(b1-4)GlcNAc(b1-4)GlcNAc
# [14] = target: Gal(b1-4)GlcNAc(b1-3)Gal(b1-4)GlcNAc(b1-3)Gal(b1-4)GlcNAc(b1-3)Gal(b1-4)GlcNAc(b1-3)Gal(b1-4)GlcNAc(b1-2)[Gal(b1-4)GlcNAc(b1-3)Gal(b1-4)GlcNAc(b1-3)Gal(b1-4)GlcNAc(b1-3)Gal(b1-4)GlcNAc(b1-3)Gal(b1-4)GlcNAc(b1-6)]Man(a1-6)[Gal(b1-4)GlcNAc(b1-3)Gal(b1-4)GlcNAc(b1-3)Gal(b1-4)GlcNAc(b1-3)Gal(b1-4)GlcNAc(b1-3)Gal(b1-4)GlcNAc(b1-2)Man(a1-3)]Man(b1-4)GlcNAc(b1-4)[Fuc(a1-6)]GlcNAc
# [15] = target: Gal(b1-4)GlcNAc(b1-3)[GlcNAc(b1-6)]Gal(b1-4)GlcNAc
# [16] = target: Gal(b1-4)GlcNAc(b1-6)GalNAc
# Gal3S(b1-3)GalNAc = target: Gal3S(b1-3)GalNAc
# Gal4S6S(b1-4)GlcNAc = target: Gal4S6S(b1-4)GlcNAc
# Gal6S(b1-4)GlcNAc6S = target: Gal6S(b1-4)GlcNAc6S
# [17] = target: GalNAc(a1-3)GalNAc(b1-3)Gal(a1-4)Gal(b1-4)Glc
# [18] = target: GlcNAc(b1-4)[GlcNAc(b1-6)]GalNAc
# [19] = target: Kdn(a2-3)Gal(b1-4)[Fuc(a1-3)]GlcNAc
# [20] = target: Man(a1-2)Man(a1-2)Man(a1-6)[Man(a1-3)]Man
# [21] = target: Man(a1-2)Man(a1-3)[Man(a1-2)Man(a1-6)]Man(a1-6)[Man(a1-2)Man(a1-2)Man(a1-3)]Man
# [22] = target: Man(a1-2)Man(a1-3)[Man(a1-2)Man(a1-6)]Man(a1-6)[Man(a1-2)Man(a1-2)Man(a1-3)]Man(b1-4)GlcNAc(b1-4)GlcNAc
# [23] = target: Man(a1-2)Man(a1-6)[Man(a1-3)]Man(a1-6)[Man(a1-2)Man(a1-2)Man(a1-3)]Man
# [24] = target: Man(a1-2)Man(a1-6)[Man(a1-3)]Man(a1-6)[Man(a1-2)Man(a1-2)Man(a1-3)]Man(b1-4)GlcNAc(b1-4)GlcNAc
# Man(a1-3)[Man(a1-6)]Man = target: Man(a1-3)[Man(a1-6)]Man
# [25] = target: Man(a1-3)[Man(a1-6)]Man(a1-6)[Man(a1-2)Man(a1-3)]Man(b1-4)GlcNAc(b1-4)GlcNAc
# [26] = target: Man(a1-3)[Man(a1-6)]Man(a1-6)[Man(a1-3)]Man
# [27] = target: Man(a1-3)[Man(a1-6)]Man(a1-6)[Man(a1-3)]Man(b1-4)GlcNAc(b1-4)GlcNAc
# [28] = target: Man(a1-3)[Man(a1-6)]Man(b1-4)GlcNAc(b1-4)GlcNAc
# Man(a1-6)Man = target: Man(a1-6)Man
# [29] = target: Neu5Ac(a2-3)Gal(b1-3)[Fuc(a1-4)]GlcNAc(b1-3)Gal(b1-4)[Fuc(a1-3)]GlcNAc
# [30] = target: Neu5Ac(a2-3)Gal(b1-4)GlcNAc
# [31] = target: Neu5Ac(a2-3)Gal(b1-4)[Fuc(a1-3)]GlcNAc(b1-6)[Gal(b1-3)]GalNAc
# [32] = target: Neu5Ac(a2-3)[Neu5Ac(a2-6)]GalNAc
# [33] = target: Neu5Ac(a2-6)Gal(b1-4)GlcNAc(b1-2)Man(a1-3)Man(b1-4)GlcNAc(b1-4)GlcNAc
# [34] = target: Neu5Ac(a2-6)Gal(b1-4)GlcNAc(b1-2)Man(a1-6)[GlcNAc(b1-2)Man(a1-3)]Man(b1-4)GlcNAc(b1-4)GlcNAc
# [35] = target: Neu5Ac(a2-6)Gal(b1-4)GlcNAc(b1-2)Man(a1-6)[Man(a1-3)]Man(b1-4)GlcNAc(b1-4)GlcNAc
# [36] = target: Neu5Ac(a2-8)Neu5Ac(a2-3)Gal(b1-3)GalNAc(b1-4)[Neu5Ac(a2-3)]Gal(b1-4)Glc
# [37] = target: Neu5Gc(a2-3)Gal(b1-4)GlcNAc(b1-3)Gal(b1-4)GlcNAc(b1-2)Man(a1-3)[Neu5Gc(a2-3)Gal(b1-4)GlcNAc(b1-3)Gal(b1-4)GlcNAc(b1-2)Man(a1-6)]Man(b1-4)GlcNAc(b1-4)GlcNAc
binder,measurement,setting,value
"FimH (Escherichia coli), P08191 (protein) FACKTANGTAIPIGGGSANVYVNLAPVVNVGQNLVVDLSTQIFCHNDYPETITDYVTLQRGSAYGGVLSNFSGTVKYSGSSYPFPTTSETPRVVYNSRTDKPWPVALYLTPVSSAGGVAIKAGSLIAVLILRQTNNYNSDDFQFVWNIYANNDVVVPT",glycan array binding signal (z-score),[1],1.22
same,glycan array binding signal (z-score),[2],-0.289
same,glycan array binding signal (z-score),Fuc(a1-2)[Gal(a1-3)]Gal,-0.326
same,glycan array binding signal (z-score),[3],-0.263
same,glycan array binding signal (z-score),[4],-0.333
same,glycan array binding signal (z-score),Gal(a1-2)Gal,-0.312
same,glycan array binding signal (z-score),[5],-0.296
same,glycan array binding signal (z-score),[6],2.12
same,glycan array binding signal (z-score),[7],-0.296
same,glycan array binding signal (z-score),[8],-0.33
same,glycan array binding signal (z-score),[9],0.212
same,glycan array binding signal (z-score),[10],-0.274
same,glycan array binding signal (z-score),[11],-0.334
same,glycan array binding signal (z-score),[12],0.061
same,glycan array binding signal (z-score),[13],4.1
same,glycan array binding signal (z-score),[14],0.904
same,glycan array binding signal (z-score),[15],-0.333
same,glycan array binding signal (z-score),[16],-0.31
same,glycan array binding signal (z-score),Gal3S(b1-3)GalNAc,-0.332
same,glycan array binding signal (z-score),Gal4S6S(b1-4)GlcNAc,-0.331
same,glycan array binding signal (z-score),Gal6S(b1-4)GlcNAc6S,-0.33
same,glycan array binding signal (z-score),[17],-0.33
same,glycan array binding signal (z-score),[18],-0.333
same,glycan array binding signal (z-score),[19],-0.31
same,glycan array binding signal (z-score),[20],4.37
same,glycan array binding signal (z-score),[21],3.9
same,glycan array binding signal (z-score),[22],2.56
same,glycan array binding signal (z-score),[23],4.11
same,glycan array binding signal (z-score),[24],4.65
same,glycan array binding signal (z-score),Man(a1-3)[Man(a1-6)]Man,6.22
same,glycan array binding signal (z-score),[25],3.96
same,glycan array binding signal (z-score),[26],4.92
same,glycan array binding signal (z-score),[27],5.51
same,glycan array binding signal (z-score),[28],4.48
same,glycan array binding signal (z-score),Man(a1-6)Man,0.871
same,glycan array binding signal (z-score),[29],0.431
same,glycan array binding signal (z-score),[30],-0.327
same,glycan array binding signal (z-score),[31],-0.282
same,glycan array binding signal (z-score),[32],-0.33
same,glycan array binding signal (z-score),[33],-0.273
same,glycan array binding signal (z-score),[34],-0.12
same,glycan array binding signal (z-score),[35],5.83
same,glycan array binding signal (z-score),[36],-0.328
same,glycan array binding signal (z-score),[37],-0.165
